Here are results for eleven substances from PMC7765321, “Novel Isoniazid-Carborane Hybrids Active In Vitro against Mycobacterium tuberculosis” (Pharmaceuticals, 2020).

In the series the test system is Mtb H37Rv strain. The series is classed as cell-based. As to conditions: Selectivity Index = CC50/MIC99 Mtb.

Consider “N′-((1,7-dicarba-closo-dodecaboran-1-yl)methylidene)isonicotinohydrazide [Compound 14]”, for which the “SI Mtb” value worked out at 38.

As for “N′-((1,2-dicarba-closo-dodecaboran-1-yl)ethylidene)isonicotinohydrazide [Compound 20]”, the “SI Mtb” value came to 51.

Turning to “N′-((1,12-dicarba-closo-dodecaboran-1-yl)methylidene)isonicotinohydrazide [Compound 15]”, the “SI Mtb” value worked out at 18.

Take “N′-((1,7-dicarba-closo-dodecaboran-1-yl)propanoyl)isonicotinohydrazide [Compound 9]”: the “SI Mtb” value is 4.

For the substance “N′-((7,8-dicarba-nido-undecaboranyl)methylidene)isonicotinohydrazide [Compound 16]”, the “SI Mtb” value is 756.

In the case of “N′-((1,12-dicarba-closo-dodecaboran-1-yl)propanoyl)isonicotinohydrazide [Compound 10]”, the “SI Mtb” value is 2.

For the substance “N′-((1,7-dicarba-closo-dodecaboran-1-yl)ethylidene)isonicotinohydrazide [Compound 21]”, the “SI Mtb” value came to 95.

Take “N′-((1,2-dicarba-closo-dodecaboran-1-yl)ethyl)isonicotinohydrazide [Compound 23]”: the “SI Mtb” value stood at 18.

Take “N′-((1,12-dicarba-closo-dodecaboran-1-yl)ethylidene)isonicotinohydrazide [Compound 22]”: the “SI Mtb” value was determined as 50.

“N′-((1,2-dicarba-closo-dodecaboran-1-yl)propanoyl)isonicotinohydrazide [Compound 8]”: the “SI Mtb” value is less than 1.

“N′-((1,7-dicarba-closo-dodecaboran-1-yl)ethyl)isonicotinohydrazide [Compound 24]”: the “SI Mtb” value is reported as 32.
